Pooled drug test results. Numbers come from NIAID ChemDB, via PubChem.

Shared fields: toxicity to cultured cells; cells: CV-1; measure: CC50

CCn: concentration that lowers growth or viability of the cells by n%. An empty or dashed field is not shown. Conditions beyond the fields shown may differ between rows.

structure | read by | value
CCNc1nc(=O)c2ncn([C@@H]3O[C@H](CO)[C@@H](O)[C@H]3O)c2c(=O)[nH]1 |  | >100 µM
Nc1ncnc2c1ncn2[C@H]1CC[C@H](O)[C@@H]1O |  | 100 µg/mL
CCCc1cc(=O)oc2cc(OS(=O)(=O)c3ccc(C)cc3)c3c(c12)OC(C)(C)C=C3 |  | 20 µg/mL
O=C(OC[C@H]1O[C@@H](OC(=O)c2cc(O)c(O)c(O)c2)[C@H](O)[C@@H](OC(=O)c2cc(O)c(O)c(O)c2)[C@@H]1O)c1cc(O)c(O)c(O)c1 |  | 18 µg/mL
Nc1nc(=O)c2ncn([C@@H]3O[C@H](CO)[C@@H](O)[C@H]3O)c2c(=O)[nH]1 |  | >100 µM
C[C@@]1(O)[C@H](O)[C@@H](COP(=O)(O)OP(=O)(O)OP(=O)(O)O)O[C@H]1n1ccc2c(N)ncnc21 |  | 180 µM
O=C[C@H](OC(=O)c1cc(O)c(O)c(O)c1)[C@@H](OC(=O)c1cc(O)c(O)c(O)c1)[C@@H]1OC(=O)c2cc(O)c(O)c(O)c2-c2c(cc(O)c(O)c2O)C(=O)OC[C@H]1O |  | >30 µg/mL
CCCc1cc(=O)oc2cc(O)cc(O)c12 |  | 10 µg/mL
Nc1ncnc2c1ncn2[C@@H]1CC[C@@H](O)[C@H]1O |  | 100 µg/mL
CCC/C(=C/C(=O)OC)c1c(O)c2c(c3c1OC(C)(C)[C@H](O)[C@H]3O)O[C@H](C)[C@@H](C)[C@@H]2O | neutral red | 20 µg/mL
O=C1O[C@H]2[C@@H]3OC(=O)c4cc(O)c(O)c(O)c4-c4c(cc(O)c(O)c4O)C(=O)OC[C@H]2O[C@@H](OC(=O)c2cc(O)c(O)c(O)c2)[C@@H]3OC(=O)c2cc(O)c(O)c3c2[C@@H]2C1=CC(=O)[C@](O)(O3)C2(O)O |  | >30 µg/mL
CCCc1cc(=O)oc2cc(OC(=O)C(C)(C)C)cc(OC(=O)C(C)(C)C)c12 | neutral red | 10 µg/mL
O=C(OC1OC2COC(=O)c3cc(O)c(O)c(O)c3-c3c(cc(O)c(O)c3O)C(=O)OC2C(OC(=O)c2cc(O)c(O)c(O)c2)C1OC(=O)c1cc(O)c(O)c(O)c1)c1cc(O)c(O)c(Oc2c(C(=O)OC3OC4COC(=O)c5cc(O)c(O)c(O)c5-c5c(cc(O)c(O)c5O)C(=O)OC4C(OC(=O)c4cc(O)c(O)c(O)c4)C3OC(=O)c3cc(O)c(O)c(O)c3)cc(O)c(O)c2O)c1 |  | >30 µg/mL
Nc1nc2c(ncn2COCCO)c(=O)[nH]1 |  | 220 µM
CCCc1cc(=O)oc2c3c(c4c(c12)OC(C)(C)C=C4)O[C@H](C)[C@H](C)C3=O |  | 10 µg/mL
O=C(O[C@@H]1O[C@@H]2COC(=O)c3cc(O)c(O)c(O)c3-c3c(cc(O)c(O)c3O)C(=O)O[C@H]2[C@@H]2OC(=O)c3cc(O)c(O)c(O)c3-c3c(cc(O)c(O)c3O)C(=O)O[C@@H]12)c1cc(O)c(O)c(O)c1 |  | >30 µg/mL

Again, the opening 2 rows:

structure	read by	value
CCNc1nc(=O)c2ncn([C@@H]3O[C@H](CO)[C@@H](O)[C@H]3O)c2c(=O)[nH]1		>100 µM
Nc1ncnc2c1ncn2[C@H]1CC[C@H](O)[C@@H]1O		100 µg/mL